This note sets out measurements from patent publication US20240065998A1, “MONOACYLGLYCEROL AND FREE FATTY ACID-BASED COMPOSITIONS, METHODS OF MANUFACTURING AND USE OF THE SAME” (priority 2021, published 2024).

This experiment concerns Influenza A(H1N1)pdm09 (California/07/09). To be noted: Table 58A, 70%, 2 min, 37 ± 2° C.; VC titer 5.7.

Structures are written as SMILES. Bounds are passed on as bounds.

As to `CCO` [Ethanol], the LRV is reported as above 5.0.
